Assay results reported in patent US9744186B2 (priority 2012, dated 2017).

Test system: HCV luciferase replicon
Experiment: HCV luciferase replicon inhibition in the presence of carboxylesterase inhibitors (benzil or BNPP)
Type: cell-based, hepatitis C virus (HCV)
Protocol: The cells were counted using a hemocytometer, and then diluted to 1×10^5 cells/mL in DMEM with 10% FBS and […] G415. 100 μL of the cells (10,000 cells) were plated per well in a white-walled 96-well plate according to the template on the following page.
Treating the cells: Media (DMEM with 2% FBS) was pre-warmed to 37° C. Stock solutions (100 mM) of Benzil and BNPP were diluted in DMEM with 2% FBS to 100 μM. […] The cells were returned to 37° C. for 1 h. […] The 1.0 mM dilution of GCB or GTB in DMEM+2% FBS+100 μM Benzil or BNPP was serially diluted in DMEM with 2% FBS, 0.5% DMSO, 100 μM benzil or BNPP. At the end of the 1 h incubation, the 96-well plate with cells plated as above was removed from the 37° C. incubator, and 50 μL media diluted test drug and 100 μM of benzil or BNPP was added to each well. The plates were gently rocked to mix the media. Also included were conditions with inhibitors alone (DMEM+2% FBS+0.5% DMSO+100 μM benzil or BNPP) and media alone (DMEM+2% FBS+0.5% DMSO) in triplicate. The plates were returned to 37° C. for 48 h.

COc1cc(C(=O)Nc2ccn([C@@H]3O[C@H](CO)[C@@H](O)C3(F)F)c(=O)n2)cc(OC)c1OC [GTB, N^4-(3,4,5-Trimethoxybenzoyl)gemcitabine]
Fold-change in IC50 +BNPP (100 μM BNPP): 1.6
Fold-change in IC50 +Benzil (100 μM benzil): 2.5
